# In article PMC9785311, “Effect of Structural Differences in Naringenin, Prenylated Naringenin, and Their Derivatives on the Anti-Influenza Virus Activity and Cellular Uptake of Their Flavanones” (Pharmaceuticals, 2022):
# Tested on: MDCK cells
# Assay: Cellular uptake by fluorescence microscopy
# Conditions: 30 μM compound, phenol red-free medium, 60-360 min, about 20 cells per time point
substance,measurement,value
(±)-Naringenin [reference compound],Fluorescence intensity (intracellular uptake),low fluorescence intensity
